pIC50: −log10 of the molar value. Structures were worked out from names or drawings and are uncertain.
target: K103NNY181C mutant reverse transcriptase (Human immunodeficiency virus type 1 group M subtype B, UniProt P04585, K690N/Y768C); test: Reverse transcriptase enzymatic assay (PicoGreen), K103N/Y181C mutant RT; format: biochemical, HIV-1; conditions: read-out: IC50 mut, enzymatic assay of Example 24

| Structure (SMILES) | pIC50 |
| --- | --- |
| O=C(O)Cc1ccc(-c2ccc(NC(=O)CSc3nnnn3-c3cc4c(cc3Cl)CCC4)c(Cl)c2)cc1 | 7.80 |
| Cc1ccc(-n2nnnc2SCC(=O)Nc2ccc(-c3ccc(O)cc3)cc2Cl)c(Cl)c1 | 7.54 |
| CC(C)c1cc(Cl)c(-n2nnnc2SCC(=O)Nc2ccc(-c3ccc(CC(=O)O)cc3)cc2Cl)c(C(F)(F)F)c1 | 7.31 |
| COc1ccc(-c2ccc(NC(=O)CSc3nnnn3-c3ccc(C)cc3Cl)c(Cl)c2)cc1 | 7.11 |
| O=C(CSc1nnnn1-c1ccc(C(F)(F)F)cc1Cl)Nc1ccc(-c2ccc(OCCN3CCCCC3)cc2)cc1Cl | 6.44 |
| Cc1ccc(-n2nnnc2SCC(=O)Nc2ccc(-c3ccc(S(N)(=O)=O)cc3)cc2[N+](=O)[O-])c(Cl)c1 | 7.16 |
| O=C(O)Cc1ccc(-c2ccc(NC(=O)CSc3nnnn3-c3cc4ccccc4cc3Cl)c(Cl)c2)cc1 | 7.80 |

From patent US7517998B2, “Non nucleoside reverse transcriptase inhibitors” (priority 2004, dated 2009)
